# Test results published in paper PMC10998906, “Triple tandem trimer immunogens for HIV-1 and influenza nucleic acid-based vaccines” (2024).
# Legend:
# [1] = target: cH125/111 TTT (head-chimeric HA TTT); test: negative-stain EM
# [2] = target: cH125 TTT (protomer-chimeric HA TTT); test: negative-stain EM
substance,measurement,setting,value
CR9114 Fab,stoichiometry N (Fabs per trimer),[1],3
same,stoichiometry N (Fabs per trimer),[2],3
